Source: paper PMC4598760 (Biomolecules, 2015)
Where two headings read alike, the source gives them in different places.

Test system: hemagglutinin (HA) on immobilized influenza virus A/Mem71 (H3N1)
Format: binding, influenza A virus A/Memphis/1971

## CC(=O)N[C@H]1[C@H]([C@H](O)[C@H](O)CO)O[C@@](O[C@H]2[C@@H](O)[C@@H](CO)O[C@@H](O[C@H]3[C@H](O)[C@@H](O)C(O)O[C@@H]3CO)[C@@H]2O)(C(=O)O)C[C@@H]1O (stereo partly drawn) [α2-3 sialyllactose (OS-11), α2-3-sialyllactose]
  ΔH: -41.4 kcal/mol
  ΔS: −0.13 kcal/mol·K
288 K
  TΔS: -37.9 kcal/mol
  ΔG: -3.44 kcal/mol
293 K
  TΔS: -38.6 kcal/mol
  ΔG: -2.96 kcal/mol
296 K
  TΔS: -39.0 kcal/mol
  ΔG: -2.35 kcal/mol
298 K
  TΔS: -39.2 kcal/mol
  ΔG: -2.16 kcal/mol

## CC(=O)N[C@H]1[C@H]([C@H](O)[C@H](O)CO)O[C@@](OC[C@H]2O[C@@H](O[C@H]3[C@H](O)[C@@H](O)C(O)O[C@@H]3CO)[C@H](O)[C@@H](O)[C@H]2O)(C(=O)O)C[C@@H]1O (stereo partly drawn) [α2-6 sialyllactose (OS-21), α2-6-sialyllactose]
  ΔH: -32.2 kcal/mol
  ΔS: −0.10 kcal/mol·K
288 K
  TΔS: -29.2 kcal/mol
  ΔG: -2.87 kcal/mol
293 K
  TΔS: -29.7 kcal/mol
  ΔG: -2.63 kcal/mol
296 K
  TΔS: -30.0 kcal/mol
  ΔG: -2.21 kcal/mol
298 K
  TΔS: -30.2 kcal/mol
  ΔG: -1.82 kcal/mol
